A mixed list of measured activities; the numbers were collected in NIAID ChemDB.

All rows: growth or infection tests; species: HIV-2; cell line: PBMC; endpoint: EC50

ECn is the concentration giving n% inhibition of infection, replication or growth.

structure,strain or isolate,method,conditions,value
Cc1cn([C@H]2C[C@H](N=[N+]=[N-])[C@@H](CO)O2)c(=O)[nH]c1=O,-,p24 / RT activity,-,0.012 µM
Cc1cn([C@H]2C[C@H](N=[N+]=[N-])[C@@H](CO)O2)c(=O)[nH]c1=O,MS,RT activity,-,<2.5 µg/mL
CCc1nc2ccccn2c1C(=O)c1cccs1,194,RT activity,-,>100 µM
CC(C)[C@H](NC(=O)c1ccc2ccccc2n1)C(=O)N[C@@H](Cc1ccccc1)[C@H](O)CN1CC[C@@H](OCc2ccncc2)C[C@H]1C(=O)NC(C)(C)C,ROD,p24 / ELISA / antigen,-,0.008 µM
CCc1nc2sccn2c1C(=O)c1ccco1,194,RT activity,-,>100 µM
Nc1ccn([C@H]2CC[C@@H](CO)O2)c(=O)n1,ROD,-,-,0.05 µM
CCOCn1c([Se]c2ccccc2)c(CC)c(=O)[nH]c1=O,ROD,RT activity,-,14.6 µM
Cc1cn([C@H]2C=C[C@@H](COC(=O)CCNC(=O)C(=O)/C=C(\O)c3cc(OCc4ccccc4)cc(OCc4ccccc4)c3)O2)c(=O)[nH]c1=O,D194,RT activity,-,5.9 µM
c1cc(CN2CCCNCCNCCCNCC2)ccc1CN1CCCNCCNCCCNCC1,ROD X4,antigen,-,0.007 µg/mL
Cc1cn([C@H]2C[C@H](N=[N+]=[N-])[C@@H](CO)O2)c(=O)[nH]c1=O,-,p24 / ELISA,-,0.001 µM
O=C(O)P(=O)(O)O,ROD,-,-,0.44 µM
CCOCn1c([Se]c2ccccc2)c(F)c(=O)[nH]c1=O,ROD,RT activity,-,8.5 µM
Cc1cn([C@H]2C[C@H](N=[N+]=[N-])[C@@H](CO)O2)c(=O)[nH]c1=O,D194,RT activity,-,0.011 µM
Nc1nc(=O)n([C@H]2C=C[C@@H](CO)O2)cc1F,-,-,-,<0.07 µM
Cc1cn([C@H]2C[C@H](N=[N+]=[N-])[C@@H](CO)O2)c(=O)[nH]c1=O,ROD,RT activity,-,<0.03 µM
Cc1cn([C@H]2C[C@H](N=[N+]=[N-])[C@@H](CO)O2)c(=O)[nH]c1=O,CDC310319,p24,-,0.006 µM
Cc1cn([C@H]2C=C[C@@H](COC(=O)CCNC(=O)C(=O)/C=C(\O)c3cccn3Cc3ccc(F)cc3)O2)c(=O)[nH]c1=O,D194,RT activity,-,4.4 µM
CC(C)[C@H](NC(=O)c1ccc2ccccc2n1)C(=O)N[C@@H](Cc1ccccc1)[C@H](O)CN1CC[C@@H](OCc2ccncc2)C[C@H]1C(=O)NC(C)(C)C,ROD,p24,-,0.008 µM
CC(C)(C)C(=O)c1sc(C(=O)NCc2ccccc2)c(O)c1O,D194,p24,-,0.7 µM
CCc1c(C(=O)c2cc(C)cc(C)c2)n(CC2CC=CC2)c(=O)[nH]c1=O,CDC310319,cytopathic effect / XTT,clinical isolate,0.04 µM
Cc1cn([C@H]2C[C@H](N=[N+]=[N-])[C@@H](CO)O2)c(=O)[nH]c1=O,ROD,RT activity,-,0.005 µM
O=c1[nH]cnc2c1ncn2[C@H]1CC[C@@H](CO)O1,336,ELISA,-,2.19 µM
Cc1cn([C@H]2C[C@H](N=[N+]=[N-])[C@@H](CO)O2)c(=O)[nH]c1=O,ROD,-,-,<0.01 µM
Cc1cn([C@H]2C[C@H](N=[N+]=[N-])[C@@H](CO)O2)c(=O)[nH]c1=O,ROD-2,RT activity,-,0.004 µM
CC(C)(C)NC(=O)[C@@H]1C[C@@H]2CCCC[C@@H]2CN1C[C@@H](O)[C@H](Cc1ccccc1)NC(=O)[C@H](CC(N)=O)NC(=O)c1ccc2ccccc2n1,ROD,-,-,0.0098 µM
CCc1nc2ccccn2c1C(=O)c1ccco1,ROD,RT activity,-,>100 µM

Blank or dashed fields: not listed here. Conditions beyond the fields shown may differ between rows.